Experiments:
[1] = biological target: (His)10-MBP-DotL(656-783)–IcmSW–LvgA(I153E) (Legionella pneumophila, UniProt Q5ZYC6;Q5ZYD0;Q5ZS31;Q5ZY48, I153E); test: BLI
[2] = biological target: T1, (His)10-MBP-DotL(656-783)–IcmSW–LvgA (Legionella pneumophila, UniProt Q5ZYC6;Q5ZYD0;Q5ZS31;Q5ZY48); test: BLI
T1 construct: copies: + + +

Binder | fold increase of KD against the wild-type complex [1] [fold] | fold increase of KD against SidH(1830-2200) [2] [fold]
SidH(1830-2200) (domain or fragment) DSIPKENTVEFLKKMQEETRSSLKSLESNDALINIYDVLNSLKETIENGSDLPEIKKDKLQMISDVQNILSNFDKNPAERLNLAVQILNDSNPEVLSKTKGNFLIGEAFKGQVFTNYINTKISEQLNNELGPYGKVFLKQIMPDFIAKKSEIIKEIAIDNMETGLETQFKIHAPAIFEKNKELKAAYEQLNVHLKEVQSLIEAEEKKPKGNPCREEKIAALRSHQSQLMNTQRIPDHETLRFLQEQNKSAKSFMGKLEKYDTMISVYDSLTEIREHVSNHKSLSKEIKDEKIQEISKMEDMLKTTSKEPSIRLAEVKAHGLSDQCKNVLLKNSDNFLVSFFKTLFSKLFNIKNENETLVSSFKQRLQNIKG | ~11 | –
SidH(1830-2200;F2191A) (domain or fragment) DSIPKENTVEFLKKMQEETRSSLKSLESNDALINIYDVLNSLKETIENGSDLPEIKKDKLQMISDVQNILSNFDKNPAERLNLAVQILNDSNPEVLSKTKGNFLIGEAFKGQVFTNYINTKISEQLNNELGPYGKVFLKQIMPDFIAKKSEIIKEIAIDNMETGLETQFKIHAPAIFEKNKELKAAYEQLNVHLKEVQSLIEAEEKKPKGNPCREEKIAALRSHQSQLMNTQRIPDHETLRFLQEQNKSAKSFMGKLEKYDTMISVYDSLTEIREHVSNHKSLSKEIKDEKIQEISKMEDMLKTTSKEPSIRLAEVKAHGLSDQCKNVLLKNSDNFLVSFFKTLFSKLFNIKNENETLVSSAKQRLQNIKG | – | ≥ 25
SidH(1830-2200;L2195A) (domain or fragment) DSIPKENTVEFLKKMQEETRSSLKSLESNDALINIYDVLNSLKETIENGSDLPEIKKDKLQMISDVQNILSNFDKNPAERLNLAVQILNDSNPEVLSKTKGNFLIGEAFKGQVFTNYINTKISEQLNNELGPYGKVFLKQIMPDFIAKKSEIIKEIAIDNMETGLETQFKIHAPAIFEKNKELKAAYEQLNVHLKEVQSLIEAEEKKPKGNPCREEKIAALRSHQSQLMNTQRIPDHETLRFLQEQNKSAKSFMGKLEKYDTMISVYDSLTEIREHVSNHKSLSKEIKDEKIQEISKMEDMLKTTSKEPSIRLAEVKAHGLSDQCKNVLLKNSDNFLVSFFKTLFSKLFNIKNENETLVSSFKQRAQNIKG | – | ≥ 24
SidH(1830-2200;K2199A) (domain or fragment) DSIPKENTVEFLKKMQEETRSSLKSLESNDALINIYDVLNSLKETIENGSDLPEIKKDKLQMISDVQNILSNFDKNPAERLNLAVQILNDSNPEVLSKTKGNFLIGEAFKGQVFTNYINTKISEQLNNELGPYGKVFLKQIMPDFIAKKSEIIKEIAIDNMETGLETQFKIHAPAIFEKNKELKAAYEQLNVHLKEVQSLIEAEEKKPKGNPCREEKIAALRSHQSQLMNTQRIPDHETLRFLQEQNKSAKSFMGKLEKYDTMISVYDSLTEIREHVSNHKSLSKEIKDEKIQEISKMEDMLKTTSKEPSIRLAEVKAHGLSDQCKNVLLKNSDNFLVSFFKTLFSKLFNIKNENETLVSSFKQRLQNIAG | – | ≥ 4

Reference: article PMC7251119 (Nature Communications, 2020)
